Among the data in patent US20240226228A1, “ANTIMICROBIAL PEPTOID HAVING IMPROVED SELECTIVITY AND ANTIMICROBIAL COMPOSITION COMPRISING SAME” (priority 2021, published 2024) are Selectivity values, retold here.

Molecules are shown by their SMILES. Where a SMILES comes first, the peptide text is derived from it. [ ]: non-standard residue; d: D form. Gly(N(CH2)2(3-indolyl)) = O=C(O)CNCCc1c[nH]c2ccccc12; Gly(N-CH2CH2-imidazol-4-yl) = O=C(O)CNCCc1c[nH]cn1; Nspe = C[C@H](NCC(=O)O)c1ccccc1; Nlys = NCCCCNCC(=O)O

The subject of this data set is red blood cells / E. coli. Nature of the data set: Analysis of selectivity of peptoid (HD10 divided by MIC against E. coli). Particulars: HD10 divided by MIC against E. coli.

Take `C[C@@H](c1ccccc1)N(CC(=O)N(CCc1c[nH]cn1)CC(=O)N(CCc1c[nH]c2ccccc12)CC(=O)N(CCc1c[nH]c2ccccc12)CC(N)=O)C(=O)CN(CCCCN)C(=O)CN(CCCCN)C(=O)CN(C(=O)CN(C(=O)CN(CCCCN)C(=O)CN(C(=O)CN(C(=O)CNCCCCN)[C@@H](C)c1ccccc1)[C@@H](C)c1ccccc1)[C@@H](C)c1ccccc1)[C@@H](C)c1ccccc1` [Peptoid 77] (H-[Nlys][Nspe][Nspe][Nlys][Nspe][Nspe][Nlys][Nlys][Nspe][Gly(N-CH2CH2-imidazol-4-yl)][Gly(N(CH2)2(3-indolyl))][Gly(N(CH2)2(3-indolyl))]-NH2): the Selectivity is listed as >8.0.

Turning to `C[C@@H](c1ccccc1)N(CC(=O)N(CCCCN)CC(=O)N(CCc1c[nH]c2ccccc12)CC(=O)N(CCc1c[nH]c2ccccc12)CC(N)=O)C(=O)CN(CCc1c[nH]cn1)C(=O)CN(CCCCN)C(=O)CN(C(=O)CN(C(=O)CN(CCCCN)C(=O)CN(C(=O)CN(C(=O)CNCCCCN)[C@@H](C)c1ccccc1)[C@@H](C)c1ccccc1)[C@@H](C)c1ccccc1)[C@@H](C)c1ccccc1` [Peptoid 78] (H-[Nlys][Nspe][Nspe][Nlys][Nspe][Nspe][Nlys][Gly(N-CH2CH2-imidazol-4-yl)][Nspe][Nlys][Gly(N(CH2)2(3-indolyl))][Gly(N(CH2)2(3-indolyl))]-NH2), the Selectivity was >15.9.

On to `C[C@@H](c1ccccc1)N(CC(=O)N(CCCCN)CC(=O)N(CCc1c[nH]c2ccccc12)CC(=O)N(CCc1c[nH]c2ccccc12)CC(N)=O)C(=O)CN(CCCCN)C(=O)CN(CCc1c[nH]cn1)C(=O)CN(C(=O)CN(C(=O)CN(CCCCN)C(=O)CN(C(=O)CN(C(=O)CNCCCCN)[C@@H](C)c1ccccc1)[C@@H](C)c1ccccc1)[C@@H](C)c1ccccc1)[C@@H](C)c1ccccc1` [Peptoid 79] (H-[Nlys][Nspe][Nspe][Nlys][Nspe][Nspe][Gly(N-CH2CH2-imidazol-4-yl)][Nlys][Nspe][Nlys][Gly(N(CH2)2(3-indolyl))][Gly(N(CH2)2(3-indolyl))]-NH2), for which the Selectivity was >15.9.

For the compound `C[C@@H](c1ccccc1)N(CC(=O)N(CCCCN)CC(=O)N(CCc1c[nH]c2ccccc12)CC(=O)N(CCc1c[nH]c2ccccc12)CC(N)=O)C(=O)CN(CCCCN)C(=O)CN(CCCCN)C(=O)CN(C(=O)CN(C(=O)CN(CCc1c[nH]cn1)C(=O)CN(C(=O)CN(C(=O)CNCCCCN)[C@@H](C)c1ccccc1)[C@@H](C)c1ccccc1)[C@@H](C)c1ccccc1)[C@@H](C)c1ccccc1` [Peptoid 80] (H-[Nlys][Nspe][Nspe][Gly(N-CH2CH2-imidazol-4-yl)][Nspe][Nspe][Nlys][Nlys][Nspe][Nlys][Gly(N(CH2)2(3-indolyl))][Gly(N(CH2)2(3-indolyl))]-NH2), the Selectivity was >8.0.

With `C[C@@H](c1ccccc1)N(CC(=O)N(CCCCN)CC(=O)N(CCc1c[nH]c2ccccc12)CC(=O)N(CCc1c[nH]c2ccccc12)CC(N)=O)C(=O)CN(CCCCN)C(=O)CN(CCCCN)C(=O)CN(C(=O)CN(C(=O)CN(CCCCN)C(=O)CN(C(=O)CN(C(=O)CNCCc1c[nH]cn1)[C@@H](C)c1ccccc1)[C@@H](C)c1ccccc1)[C@@H](C)c1ccccc1)[C@@H](C)c1ccccc1` [Peptoid 81] (H-[Gly(N-CH2CH2-imidazol-4-yl)][Nspe][Nspe][Nlys][Nspe][Nspe][Nlys][Nlys][Nspe][Nlys][Gly(N(CH2)2(3-indolyl))][Gly(N(CH2)2(3-indolyl))]-NH2), the Selectivity was >15.9.
